The assay concerns HCV 2a J6/JFH-1. The assay is described as follows: HCV infectivity assay by real-time RT-PCR of HCV RNA (EC50 at T1 and T2). The settings on record: read-out: HCV 2A T1 - EC50; early stage (T1); Table 3. As to the method:
In this assay HCV infectivity is measured using real-time RT-PCR to monitor changes in expression of HCV 2a J6/JFH-1 RNA. Cells are incubated with test compound in the presence of HCV, followed by isolation of RNA, conversion to cDNA, and Taqman-based QPCR. As designed, a compound that inhibits HCV infectivity will reduce HCV RNA expression, leading to decreased production of the PCR amplicon, thereby reducing fluorescence, and increasing Ct.
Huh-7.5 cells were plated the day before the assay. After allowing the cells to adhere overnight, test compound was prepared in HCV supernatant by making 1:10 serial dilutions from 100 micromolar down to 0.001 micromolar. […] Quantitative real-time polymerase chain reaction (PCR) was performed in triplicate using LightCycler RNA Amplification Kit HybProbe master mix (Roche) with Taqman MGB Probe 6FAM-[…]-MGBNFQ on a model LightCycler480 real time PCR system (Roche). Data are expressed as the mean fold change plus or minus SE of 3 replicates normalized to 100 ug total RNA. […]
The compounds were then studied in the same Huh7-5 cells infected with HCV 2a strain J6/JFH-1 (Kota, et al., ASSAY Drug Dev. Tech (2009) 8: 96). […] HCV RNA detected in T1 results from actual viral infection and replication. HCV RNA detected in T2 results from infectious virus secreted in T1 and replicated in freshly infected naïve cells. […]
In general terms: Quantitative PCR measures a nucleic acid by following its amplification.

Take `COC(=O)C1=C(C(=O)OC)C2N(CCOCCN3c4ccccc4[C@]45CCC(=O)N(Cc6ccccc6)C4=NC(C(=O)OC)=C(C(=O)OC)C35)c3ccccc3[C@@]23CCC(=O)N(Cc2ccccc2)C3=N1` (stereo partly shown): the EC50 is 476 nM.

By EC50 is commonly meant the concentration needed to bring the measured effect to its halfway point.

These data come from patent US9174988B2, “Small molecule inhibitors of hepatitis C virus” (TRUSTEES OF BOSTON UNIVERSITY, priority 2009, dated 2015).
